Target: recombinant riboflavin synthase of M. tuberculosis (Mycobacterium tuberculosis, UniProt P9WK35)
Experiment: Kinetic assay of riboflavin synthase inhibitors
Type: biochemical
Settings: RS; fit parameter of the inhibitor's data set

Chains of the proteins cited; added tags and fusions are not shown. Lines headed by an entry give the natural chain unless they say otherwise; changes in a name come on top.
UniProt P9WK35: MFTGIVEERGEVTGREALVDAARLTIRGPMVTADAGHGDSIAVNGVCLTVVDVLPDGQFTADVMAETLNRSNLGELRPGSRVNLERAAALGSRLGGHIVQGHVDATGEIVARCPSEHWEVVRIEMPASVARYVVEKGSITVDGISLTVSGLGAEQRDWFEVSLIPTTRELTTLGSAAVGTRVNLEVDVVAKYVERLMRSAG

1,1-Difluoro-4-(2-oxo-1,2-dihydrobenzo[cd]indole-6-sulfonamido)pentylphosphonic Acid [Compound 72]
Kcat (rate constant for ES ⇌ E + P): 0.15 ± 0.01 m^−1
